From patent US20150071955

T1: TAT-276-292 peptide (TAT domain and GBV-C E2 aa 276-292)
T1 chain: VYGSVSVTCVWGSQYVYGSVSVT

T2: TAT-SCR peptide (TAT domain and the amino acids of E2 276-292 in a scrambled order)
T2 chain: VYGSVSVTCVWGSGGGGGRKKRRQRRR


What was measured:
[1] = target: GBV-C E2 protein ([…]) with C-terminal his-tag, stably expressed in Jurkat (tet-off) cells
[2] = target: T1, TAT-276-292 peptide (TAT domain and …)
[3] = target: T2, TAT-SCR peptide (TAT domain and the …)

Protein | Lck activation (phosphorylation of Lck Y394) following TCR engagement with anti-CD3, immunoblot [1] | Lck mediated phosphorylation of peptide (Lck kinase enzyme system, RLU) [2] | Lck mediated phosphorylation of peptide (Lck kinase enzyme system, RLU) [3]
Lymphocyte specific protein tyrosine kinase (Lck), endogenous, in Jurkat cell lysate (protein) GCGCSSHPEDDWMENIDVCENCHYPIVPLDGKGTLLIRNGSEVRDPLVTYEGSNPPASPLQDNLVIALHSYEPSHDGDLGFEKGEQLRILEQSGEWWKAQSLTTGQEGFIPFNFVAKANSLEPEPWFFKNLSRKDAERQLLAPGNTHGSFLIRESESTAGSFSLSVRDFDQNQGEVVKHYKIRNLDNGGFYISPRITFPGLHELVRHYTNASDGLCTRLSRPCQTQKPQKPWWEDEWEVPRETLKLVERLGAGQFGEVWMGYYNGHTKVAVKSLKQGSMSPDAFLAEANLMKQLQHQRLVRLYAVVTQEPIYIITEYMENGSLVDFLKTPSGIKLTINKLLDMAAQIAEGMAFIEERNYIHRDLRAANILVSDTLSCKIADFGLARLIEDNEYTAREGAKFPIKWTAPEAINYGTFTIKSDVWSFGILLTEIVTHGRIPYPGMTNPEVIQNLERGYRMVRPDNCPEELYQLMRLCWKERPEDRPTFDYLRSVLEDFFTATEGQYQPQP | Lck activation, as measured by phosphorylation of Y394, was reduced in Jurkat cells expressing E2 protein compared to FS controls | – | –
Lck of the Lck kinase enzyme system (Promega) (protein) MGCGCSSHPEDDWMENIDVCENCHYPIVPLDGKGTLLIRNGSEVRDPLVTYEGSNPPASPLQDNLVIALHSYEPSHDGDLGFEKGEQLRILEQSGEWWKAQSLTTGQEGFIPFNFVAKANSLEPEPWFFKNLSRKDAERQLLAPGNTHGSFLIRESESTAGSFSLSVRDFDQNQGEVVKHYKIRNLDNGGFYISPRITFPGLHELVRHYTNASDGLCTRLSRPCQTQKPQKPWWEDEWEVPRETLKLVERLGAGQFGEVWMGYYNGHTKVAVKSLKQGSMSPDAFLAEANLMKQLQHQRLVRLYAVVTQEPIYIITEYMENGSLVDFLKTPSGIKLTINKLLDMAAQIAEGMAFIEERNYIHRDLRAANILVSDTLSCKIADFGLARLIEDNEYTAREGAKFPIKWTAPEAINYGTFTIKSDVWSFGILLTEIVTHGRIPYPGMTNPEVIQNLERGYRMVRPDNCPEELYQLMRLCWKERPEDRPTFDYLRSVLEDFFTATEGQYQPQP | – | A synthetic peptide containing this motif (TAT-276-292) also served as a Lck substrate in vitro compared to a control peptide (TAT-SCR) | Lck mediated phosphorylation of TAT-Y87 and TAT-276-292 peptide was detected in dose-dependent manner compared to TAT-Y87 peptide synthetically phosphorylated (TAT-Y87PO4) or the TAT-276-292 peptide synthesized in a scrambled order TAT-SCR
